We go through 26 molecules from PMC6271935, “Synthesis and Broad-Spectrum Antiviral Activity of Some Novel Benzo-Heterocyclic Amine Compounds” (Molecules, 2014).

Each structure is given as a SMILES string.

Data set [1] deals with Cox B3. It is filed as cell-based, Coxsackie viruses (Cox B3 Nancy strain). The conditions noted are these: selectivity index, Vero cells.
Data set [2] has as its system HCV. The data set can be described thus: Anti-HCV assay in Huh7.5 cells, intracellular HCV RNA by real time RT-PCR. The format is cell-based, hepatitis C virus. Conditions: selectivity index.
Data set [3] concerns HBV. The data set can be described thus: Anti-HBV assay in HepG2.2.15 cells, viral DNA by real time PCR. The format is cell-based, Hepatitis B virus. The conditions noted are these: selectivity index. The procedure:
The synthesized target compounds were assayed for their broad spectrum antiviral activity towards influenza A, HBV, HCV and Cox B3 virus in vitro. […] The inhibitory activities towards HBV and HCV were tested by real time PCR, and lamivudine (3TC) and teleprevir were used as positive controls, respectively.
The anti-HBV activities of test compounds and a positive control drug were tested in HepG2.2.15 cells. The HepG2.2.15 cells were cultured in 96-well plates and treated with the test compounds at 37 °C for 3 days. The medium was removed, and fresh medium containing the test compounds was added for an additional 3 days. The cells were harvested and intracellular DNA was extracted. The inhibition of viral DNA replication in treated cells versus untreated cells was determined by real time PCR.

Data set [4] concerns Influenza A/hanfang/359/95. The format is cell-based.

In the case of `Clc1ccc(CNc2ccc3cc[nH]c3c2)cc1` [1a, (4-Chlorobenzyl)-(1H-indol-6-yl)-amine], in data set [1], the “SI Cox B3” value came to 1.7. The “SI HCV” value in data set [2] is on record as 11.3. Besides, in data set [3], the “SI HBV” value is listed as 5.6.
Regarding `C(=C\c1ccccc1)/CNc1ccc2cc[nH]c2c1` [1b, (E)-(1H-Indol-6-yl)-(3-phenylallyl)-amine], the “SI Cox B3” value in data set [1] came out at 3.0.
As to `Cc1ccc(CNc2ccc3cc[nH]c3c2)o1` [1c, (1H-Indol-6-yl)-(5-methylfuran-2-ylmethyl)-amine], the “SI Cox B3” value in data set [1] was 13.0. Further, the “SI HCV” value in data set [2] was found to be 16.8.
With `Cc1ccc(CNc2ccc3cc[nH]c3c2)s1` [1d, (1H-Indol-6-yl)-(5-methylthiophen-2-ylmethyl)-amine], the “SI Influenza A/hanfang/359/95” value in data set [4] was found to be 2.2. For the same molecule, in data set [1], the “SI Cox B3” value came to 39.1.
As for `COc1cc(CNc2ccc3ncoc3c2)cc(Br)c1O` [2a, 4-(Benzooxazol-6-ylaminomethyl)-2-bromo-6-methoxyphenol], the “SI Cox B3” value in data set [1] worked out at 15.7. For the same molecule, the “SI HCV” value in data set [2] stood at 2.7.
As to `O=[N+]([O-])c1ccc(CNc2ccc3ncoc3c2)cc1` [2b, Benzooxazol-6-yl-(4-nitrobenzyl)-amine], in data set [4], the “SI Influenza A/hanfang/359/95” value is reported as 7.0. In addition, the “SI Cox B3” value in data set [1] was found to be 8.2. In addition, the “SI HCV” value in data set [2] is recorded as <3.0.
Take `C(=C\c1ccccc1)/CNc1ccc2ncoc2c1` [2c, (E)-Benzooxazol-6-yl-(3-phenylallyl)-amine]: the “SI Influenza A/hanfang/359/95” value in data set [4] came to 11.5. Also, the “SI Cox B3” value in data set [1] is 83.5. Besides, the “SI HCV” value in data set [2] amounted to 10.1.
`c1csc(CNc2ccc3ncoc3c2)c1` [2d, Benzooxazol-6-yl-thiophen-2-ylmethylamine]: the “SI Cox B3” value in data set [1] turned out to be 10.8. In data set [2], the “SI HCV” value is on record as <2.0.
Consider `Clc1ccc(CNc2ccc3ncoc3c2)s1` [2e, Benzooxazol-6-yl-(5-chlorothiophen-2-ylmethyl)-amine], for which the “SI Influenza A/hanfang/359/95” value in data set [4] was 8.0. Further, the “SI Cox B3” value in data set [1] was 8.2. In data set [2], the “SI HCV” value is 2.6.
For the molecule `c1ncc(CNc2ccc3ncoc3c2)cn1` [2f, Benzooxazol-6-yl-pyrimidin-5-ylmethyl-amine], the “SI Cox B3” value in data set [1] was 5.2.
In the case of `c1cnc2c(CNc3ccc4ncoc4c3)cccc2c1` [2g, Benzooxazol-6-yl-quinolin-8-ylmethylamine], the “SI Influenza A/hanfang/359/95” value in data set [4] amounted to 6.2. In data set [1], the “SI Cox B3” value came out at 9.0. Moreover, in data set [2], the “SI HCV” value stood at 1.9.
As to `Nc1ccn([C@@H]2CS[C@H](CO)O2)c(=O)n1` [3TC, lamivudine, reference compound], the “SI HBV” value in data set [3] is >54.1.
In the case of `COc1cc(CNc2ccc3ncsc3c2)cc(Br)c1O` [3a, 4-(Benzothiazol-6-ylaminomethyl)-2-bromo-6-methoxyphenol], in data set [1], the “SI Cox B3” value was 2.1. Also, the “SI HCV” value in data set [2] was 2.2.
For `COc1cccc(CNc2ccc3ncsc3c2)c1O` [3b, 2-(Benzothiazol-6-ylaminomethyl)-6-methoxyphenol], the “SI Influenza A/hanfang/359/95” value in data set [4] came to 5.6. Also, in data set [1], the “SI Cox B3” value was determined as 11.9. In addition, the “SI HCV” value in data set [2] amounted to 3.3.
As to `O=[N+]([O-])c1cccc(CNc2ccc3ncsc3c2)c1` [3c, Benzothiazol-6-yl-(3-nitrobenzyl)-amine], in data set [4], the “SI Influenza A/hanfang/359/95” value worked out at 3.6. In data set [1], the “SI Cox B3” value amounted to 15.6.
Turning to `O=[N+]([O-])c1ccc(CNc2ccc3ncsc3c2)cc1` [3d, Benzothiazol-6-yl-(4-nitrobenzyl)-amine], the “SI Influenza A/hanfang/359/95” value in data set [4] is recorded as 80.8. The “SI Cox B3” value in data set [1] is 99.5. The “SI HCV” value in data set [2] was found to be 6.3.
For `C(=C\c1ccccc1)/CNc1ccc2ncsc2c1` [3e, (E)-benzothiazol-6-yl-(3-phenyl-allyl)-amine], in data set [4], the “SI Influenza A/hanfang/359/95” value is given as 2.8. Moreover, the “SI Cox B3” value in data set [1] stood at 17.2. For the same molecule, the “SI HCV” value in data set [2] is 4.5.
For `COc1ccccc1/C=C/CNc1ccc2ncsc2c1` [3f, (E)-benzothiazol-6-yl-[3-(2-methoxy-phenyl)-allyl]-amine], in data set [4], the “SI Influenza A/hanfang/359/95” value is recorded as 5.2. Moreover, in data set [1], the “SI Cox B3” value was 3.9. In data set [2], the “SI HCV” value was determined as 10.9. Also, the “SI HBV” value in data set [3] is reported as 5.7.
With `Cc1ccc(CNc2ccc3ncsc3c2)o1` [3g, Benzothiazol-6-yl-(5-methylfuran-2-ylmethyl)-amine], the “SI Influenza A/hanfang/359/95” value in data set [4] is on record as 3.6. Moreover, the “SI Cox B3” value in data set [1] came to 13.0. For the same molecule, the “SI HBV” value in data set [3] was found to be 30.3.
As to `c1csc(CNc2ccc3ncsc3c2)c1` [3h, Benzothiazol-6-yl-thiophen-2-ylmethylamine], in data set [4], the “SI Influenza A/hanfang/359/95” value is 11.9. In data set [1], the “SI Cox B3” value is reported as 6.2. Also, the “SI HCV” value in data set [2] is on record as 3.2.
`Clc1ccc(CNc2ccc3ncsc3c2)s1` [3i, Benzothiazol-6-yl-(5-chlorothiophen-2-ylmethyl)-amine]: the “SI Influenza A/hanfang/359/95” value in data set [4] was determined as 8.0. The “SI Cox B3” value in data set [1] is listed as 5.2. Moreover, the “SI HCV” value in data set [2] came to 3.9.
Consider `c1ncc(CNc2ccc3ncsc3c2)cn1` [3j, Benzothiazol-6-yl-pyrimidin-5-ylmethyl-amine], for which the “SI Influenza A/hanfang/359/95” value in data set [4] was determined as 3.9. Moreover, the “SI Cox B3” value in data set [1] was determined as 15.6. In addition, in data set [2], the “SI HCV” value is <3.0.
Consider `C(=C\c1ccccc1)/CNc1ccc2nc[nH]c2c1` [4a, (E)-(3H-Benzoimidazol-5-yl)-(3-phenyl-allyl)-amine], for which the “SI Influenza A/hanfang/359/95” value in data set [4] is recorded as 3.0. Further, in data set [1], the “SI Cox B3” value is 4.0. Besides, the “SI HCV” value in data set [2] turned out to be 14.3.
For `Cc1ccc(CNc2ccc3nc[nH]c3c2)o1` [4b, (3H-Benzoimidazol-5-yl)-(5-methyl-furan-2-ylmethyl)-amine], the “SI Influenza A/hanfang/359/95” value in data set [4] came out at 20.5. Moreover, the “SI Cox B3” value in data set [1] worked out at 5.2. Moreover, the “SI HCV” value in data set [2] is on record as >8.2.
Turning to `CCOC(=O)C1=C[C@@H](OC(CC)CC)[C@H](NC(C)=O)[C@@H](N)C1` [Oseltamivir, oseltamivir, reference compound], the “SI Influenza A/hanfang/359/95” value in data set [4] came to 212.5.
As for `CCC[C@H](NC(=O)[C@@H]1[C@H]2CCC[C@H]2CN1C(=O)[C@@H](NC(=O)[C@@H](NC(=O)c1cnccn1)C1CCCCC1)C(C)(C)C)C(=O)C(=O)NC1CC1` [Telaprevir, telaprevir, reference compound], the “SI HCV” value in data set [2] is recorded as 2920.0.
